{"source": "patent US9708359B2", "about": "“Pyrrolopyrimidine nucleosides and analogs thereof” (Chimerix, Inc., priority 2015, dated 2017)", "test_system": "mouse norovirus", "assay": "Mouse Norovirus (MNV) assay in RAW cells", "conditions": "CC50 divided by EC50, MNV in RAW cells", "note": "“And” between values parts separate entries of the source, which are not always exact repeats. Identical values can stand only once.", "data": [{"smiles": "C[C@@]1(O)[C@H](O)[C@@H](CO)O[C@H]1n1ccc(N)nc1=O", "note": "[2′-C-Methyl Cytidine, reference compound]", "values": [{"measurement": "SI", "value": 10.7}]}, {"smiles": "Cc1nc(N)c2c(C(N)=O)cn([C@@H]3O[C@H](CO)[C@@H](O)[C@H]3O)c2n1", "note": "[Compound 1, 4-amino-7-((2R,3R,4S,5R)-3,4-dihydroxy-5-(hydroxymethyl)tetrahydrofuran-2-yl)-2-methyl-7H-pyrrolo[2,3-d]pyrimidine-5-carboxamide]", "values": [{"measurement": "SI", "value": "57.0 and 54"}]}]}
